Sequence variants of PSTVd loop 15 after infection

The pool varies loop 15 of the PSTVd intermediate strain in the pattern GGAAACCGNNNNNNC; wild type is GGAAACCGCUACUAC (upper and lower strand joined, each 5' to 3', the first 7 letters being the upper strand, closing pairs included).

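A pool of all variants was put on leaves of three Nicotiana benthamiana plants. Progeny were sequenced from the inoculated region (day 5), the margin of the inoculated leaf (day 10) and systemic leaves (day 12).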

Numbers give reads per thousand; 0 = not seen among the reads, higher = more abundant. Each site shows the three plants. "Pool" is the share in the plasmid pool used as inoculum, on the same scale. The inoculated region was read from the minus strand, the other sites from the plus strand. Samples held 43,870 to 66,106 reads, so the smallest values rest on one or two reads. Sequences that differ at fixed positions probably stem from PCR or sequencing errors, and defective variants can be carried along by functional ones. For reference, wild type rose from 33.9 per thousand in the pool to 202, 200, 159 (inoculated region), 724, 746, 710 (leaf margin) and 856, 883, 880 (systemic leaves).

sequence,pool,inoculated region,leaf margin,systemic leaves
GGAAACCGCGUGCCC,0.320,0.0655 / 0.0803 / 0.0952,0 / 0.0223 / 0,0 / 0 / 0
GGAAACCGCGUGCGC,0.288,0.115 / 0.0321 / 0.0762,0.0323 / 0.0223 / 0.0401,0.0161 / 0 / 0
GGAAACCGCGUGCUC,0.208,0.377 / 0.546 / 0.324,0.0162 / 0 / 0,0.0161 / 0 / 0
GGAAACCGCGUGGAC,0.176,0.115 / 0.0964 / 0.0952,0 / 0 / 0,0 / 0 / 0
GGAAACCGCGUGGCC,0.208,0.131 / 0.129 / 0.0571,0.0162 / 0 / 0.0401,0 / 0 / 0
GGAAACCGCGUGGGC,0.208,0.0491 / 0.0803 / 0.0190,0 / 0 / 0.0401,0 / 0 / 0
GGAAACCGCGUGGUC,0.256,0.442 / 0.659 / 0.248,0.0323 / 0 / 0,0.0161 / 0 / 0.0228
GGAAACCGCGUGUAC,0.160,0.278 / 0.289 / 0.381,0.146 / 0.111 / 0.160,0.0322 / 0.0303 / 0.0456
GGAAACCGCGUGUCC,0.208,0.0819 / 0.0161 / 0.0571,0 / 0 / 0,0 / 0 / 0
GGAAACCGCGUGUGC,0.112,0.377 / 0.353 / 0.400,0.162 / 0.0668 / 0.200,0.129 / 0 / 0
GGAAACCGCGUGUUC,0.224,0.213 / 0.337 / 0.419,0.178 / 0.0445 / 0.0401,0.0644 / 0.0303 / 0.0684
GGAAACCGCGUUAAC,0.144,0.0491 / 0.112 / 0.209,0 / 0 / 0.0200,0 / 0 / 0
GGAAACCGCGUUACC,0.320,0.131 / 0.0803 / 0.0762,0.0323 / 0 / 0.0401,0 / 0 / 0
GGAAACCGCGUUAGC,0.320,0.213 / 0.129 / 0.114,0.0162 / 0 / 0.0401,0 / 0 / 0
GGAAACCGCGUUAUC,0.208,0.180 / 0.193 / 0.114,0 / 0 / 0.0401,0 / 0 / 0
GGAAACCGCGUUCAC,0.272,0.197 / 0.129 / 0,0.0162 / 0.0223 / 0.0401,0 / 0 / 0
GGAAACCGCGUUCCC,0.224,0.0819 / 0.0964 / 0.0571,0.0323 / 0 / 0,0 / 0 / 0
GGAAACCGCGUUCGC,0.144,0.0819 / 0.112 / 0.133,0.0323 / 0 / 0.0200,0 / 0 / 0
GGAAACCGCGUUCUC,0.208,0.0983 / 0.129 / 0.0762,0.0162 / 0 / 0.0200,0 / 0 / 0
GGAAACCGCGUUGAC,0.224,0.0655 / 0.0643 / 0.0190,0.0162 / 0.0223 / 0.0401,0 / 0 / 0
GGAAACCGCGUUGCC,0.144,0.164 / 0.0482 / 0.152,0 / 0.0223 / 0,0 / 0 / 0
GGAAACCGCGUUGGC,0.320,0.164 / 0.0964 / 0.0762,0 / 0 / 0.0200,0 / 0 / 0
GGAAACCGCGUUGUC,0.256,0.164 / 0.112 / 0.114,0 / 0 / 0,0 / 0 / 0
GGAAACCGCGUUUAC,0.288,0.311 / 0.353 / 0.286,0.129 / 0.111 / 0.180,0.0161 / 0 / 0
GGAAACCGCGUUUCC,0.192,0.0983 / 0.0964 / 0.0762,0 / 0 / 0,0 / 0 / 0.0228
GGAAACCGCGUUUGC,0.160,0.0819 / 0.129 / 0.152,0 / 0 / 0.0200,0.0161 / 0 / 0
GGAAACCGCGUUUUC,0.224,0.213 / 0.0643 / 0.114,0 / 0 / 0.0401,0 / 0 / 0
GGAAACCGCUAAAAC,0.272,0.328 / 0.305 / 0.305,0.129 / 0.0891 / 0.160,0.0644 / 0.0756 / 0.137
GGAAACCGCUAAACC,0.192,0.131 / 0.0964 / 0.0571,0.0162 / 0 / 0.0200,0.0161 / 0 / 0
GGAAACCGCUAAAGC,0.336,0.0983 / 0.0482 / 0.133,0 / 0 / 0.0200,0 / 0 / 0
GGAAACCGCUAAAUC,0.192,0.278 / 0.209 / 0.152,0 / 0 / 0,0.0161 / 0.0151 / 0
GGAAACCGCUAACAC,0.144,0.377 / 0.273 / 0.362,0.0970 / 0.134 / 0.0401,0.0805 / 0.0605 / 0.0456
GGAAACCGCUAACCC,0.176,0.0819 / 0.0643 / 0.0381,0 / 0.0223 / 0,0.0161 / 0 / 0
GGAAACCGCUAACGC,0.304,0.115 / 0.0482 / 0.114,0 / 0 / 0.0200,0 / 0 / 0
GGAAACCGCUAACUC,0.160,0.426 / 0.418 / 0.476,0.113 / 0.134 / 0.200,0.0161 / 0 / 0
GGAAACCGCUAAGAC,0.144,0.131 / 0.145 / 0.0952,0.0485 / 0.0445 / 0,0 / 0.0151 / 0
GGAAACCGCUAAGCC,0.224,0.0655 / 0.0482 / 0.0571,0.0162 / 0.0223 / 0.0401,0 / 0 / 0
GGAAACCGCUAAGGC,0.176,0.0983 / 0.112 / 0.152,0 / 0 / 0.0401,0 / 0 / 0
GGAAACCGCUAAGUC,0.240,0.0655 / 0.0482 / 0.114,0 / 0 / 0,0 / 0 / 0
GGAAACCGCUAAUAC,0.336,28.9 / 28.7 / 24.6,18.4 / 17.6 / 12.1,8.64 / 6.37 / 5.84
GGAAACCGCUAAUCC,0.304,0.262 / 0.369 / 0.381,0.0485 / 0.134 / 0.120,0.0483 / 0.121 / 0.0456
GGAAACCGCUAAUGC,0.224,0.409 / 0.353 / 0.362,0.162 / 0.0668 / 0.0601,0.0805 / 0.0303 / 0.0912
GGAAACCGCUAAUUC,0.208,0.459 / 0.610 / 0.571,0.129 / 0.111 / 0.140,0.0322 / 0.106 / 0.0684
GGAAACCGCUACAAC,0.384,0.541 / 0.418 / 0.476,0.259 / 0.223 / 0.361,0.177 / 0.212 / 0.0684
GGAAACCGCUACACC,0.176,0.0983 / 0.129 / 0.114,0 / 0 / 0.0401,0.0161 / 0 / 0
GGAAACCGCUACAGC,0.224,0.131 / 0.0803 / 0.0571,0.0162 / 0.0223 / 0,0 / 0 / 0
GGAAACCGCUACAUC,0.192,0.0491 / 0.129 / 0.0952,0.0485 / 0 / 0.0200,0.0161 / 0 / 0

Source: Wu et al. 2024 (doi:10.1371/journal.ppat.1012142), supplementary data.